Results deposited as PubChem BioAssay AID624099 (ICCB-Longwood, 2012).

Purpose: 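Knock-downs relieving repression by E2 of an HPV18 LCR luciferase reporter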 (primary screen)
System: human C33A cervical carcinoma cells (HPV-negative) stably expressing BPV1 E2 and an HPV18 LCR luciferase reporter
Knock-down reagent: siRNA pool against human genes, 40 nM
Duration: 72 h
Read-out: 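Per-well luciferase luminescence, z-scored on each plate against the plate mean and SD with control wells left out, then averaged across three replicate plates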
Scale: mean z-score and z-score: higher = stronger reporter signal, weaker E2 silencing
Rule for the call: 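Hit if mean z-score reaches 2 and two or more of three replicate z-scores also reach 2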
The whole screen tested about 21,000 reagents; shown is an unselected part. 497 of all reagents (2.4%) were called active. 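Higher z means weaker E2 silencing; only reporter increases were scored, and knock-downs that hurt cell survival may mask genuine repressor factors.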 A number with no mark means an inactive call. Reagent sequences are not shown.

The opening 2 records, to show the layout:
LOC388459 (retired record) (GeneID 388459): mean z-score = 0.59; z-score, replicate A = 0.2; z-score, replicate B = 0.69; z-score, replicate C = 0.89
WDR12 (GeneID 55759): mean z-score = -0.17; z-score, replicate A = -0.21; z-score, replicate B = -0.08; z-score, replicate C = -0.23

Results, repeating the preview:
LOC388459 (retired record) (GeneID 388459): mean z-score = 0.59; z-score, replicate A = 0.2; z-score, replicate B = 0.69; z-score, replicate C = 0.89
WDR12 (GeneID 55759): mean z-score = -0.17; z-score, replicate A = -0.21; z-score, replicate B = -0.08; z-score, replicate C = -0.23
PLEKHH2 (GeneID 130271): mean z-score = 0.63; z-score, replicate A = 0.81; z-score, replicate B = 0.64; z-score, replicate C = 0.45
TK2 (GeneID 7084): mean z-score = 1.3; z-score, replicate A = 1.33; z-score, replicate B = 1.27; z-score, replicate C = 1.28
LOC392749 (retired record) (GeneID 392749): mean z-score = 0.69; z-score, replicate A = 1.11; z-score, replicate B = 0.96; z-score, replicate C = 0
RIBC2 (GeneID 26150): mean z-score = -0.55; z-score, replicate A = -0.42; z-score, replicate B = -0.6; z-score, replicate C = -0.64
PPP6R1 (GeneID 22870): mean z-score = 0.1; z-score, replicate A = 0.12; z-score, replicate B = 0.14; z-score, replicate C = 0.03
YIPF1 (GeneID 54432): mean z-score = 0.34; z-score, replicate A = 0.29; z-score, replicate B = 0.56; z-score, replicate C = 0.18
ZNRF4 (GeneID 148066): mean z-score = 1.62; z-score, replicate A = 2.34; z-score, replicate B = 1.43; z-score, replicate C = 1.1
SNX19 (GeneID 399979): mean z-score = 1; z-score, replicate A = 1.24; z-score, replicate B = 0.96; z-score, replicate C = 0.81
WDR41 (GeneID 55255): mean z-score = -0.42; z-score, replicate A = -0.21; z-score, replicate B = -0.38; z-score, replicate C = -0.69
CDS1 (GeneID 1040): mean z-score = 0.35; z-score, replicate A = 0.03; z-score, replicate B = 0.68; z-score, replicate C = 0.35
ZNF91 (GeneID 7644): mean z-score = 1.14; z-score, replicate A = 1.2; z-score, replicate B = 1; z-score, replicate C = 1.21
R3HCC1L (GeneID 27291): mean z-score = 0.45; z-score, replicate A = 0.14; z-score, replicate B = 0.54; z-score, replicate C = 0.69
STON2 (GeneID 85439): mean z-score = -1.56; z-score, replicate A = -1.87; z-score, replicate B = -1.63; z-score, replicate C = -1.19
TRIM29 (GeneID 23650): mean z-score = -1.4; z-score, replicate A = -1.75; z-score, replicate B = -1; z-score, replicate C = -1.44
XRN1 (GeneID 54464): mean z-score = 1.09; z-score, replicate A = 0.81; z-score, replicate B = 1.02; z-score, replicate C = 1.42
RALYL (GeneID 138046): mean z-score = 0.4; z-score, replicate A = 0.59; z-score, replicate B = 0.45; z-score, replicate C = 0.18
NT5DC2 (GeneID 64943): mean z-score = -0.12; z-score, replicate A = -0.35; z-score, replicate B = 0.07; z-score, replicate C = -0.08
LOC389702 (retired record) (GeneID 389702): mean z-score = 0.25; z-score, replicate A = 0.46; z-score, replicate B = 0.12; z-score, replicate C = 0.17
BDNF (GeneID 627): mean z-score = 0.04; z-score, replicate A = 0.02; z-score, replicate B = -0.03; z-score, replicate C = 0.13
